Weaker means in comparison with the reference protein, sequence or condition of that experiment. Where a protein sequence is shown, tags need not be part of it.
molecular target: T1, TbKKT2 central domain (562-677) (Trypanosoma brucei) (UniProt Q383M7); experiment: EMSA; settings: EMSA: 200 nM dsDNA, 0.78-30 µM protein, 30 min RT, native PAGE at 4°C; recombinant protein; residues 562-677; protein details: His6 N-terminal, TEV-cleaved
T1 sequence (looked up): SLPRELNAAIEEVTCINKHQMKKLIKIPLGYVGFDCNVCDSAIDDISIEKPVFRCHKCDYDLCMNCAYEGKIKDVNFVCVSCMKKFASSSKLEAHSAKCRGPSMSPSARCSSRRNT

Binding result, binds more weakly:
AGGTAACTAGAAGAATTGTAATATTCTAAATGTTGATCCATTTGAATCAT (double strand) [50 mer 26% GC (BA3298/BA3299)]
CAATATGTAAGGTGTTTTGGTGTAAAACACGCATTCTTGCATAACATGCA (double strand) [50 mer CEN (BA3296/BA3297)]
CGCAGATCCGCGGGGCCCGTGCCGACGCGCGGGCATTGTCCGTGAGGTGA (double strand) [50 mer 74% GC (BA3300/BA3301)]

Source: paper PMC8178753
